Anti-infective test results gathered from many reports (values: NIAID ChemDB through PubChem).

Common to all: tests in culture; organism: Mycobacterium kansasii

Neighbouring rows are from separate reports. MIC50, MIC90 and the like: level of inhibition, or share of isolates inhibited. Two numbers with a dash give a range or band. Blank or dashed fields: not listed here.

SMILES	strain	measure	read by	setting	value
CC(=O)NC[C@H]1CN(c2ccc(N3CCOCC3)c(F)c2)C(=O)O1	104 clinical isolates	MIC50			0.5 µg/mL
COc1cc(O)cc(/C=C/c2cc3ccccc3s2)c1		MIC	broth dilution		16 µg/mL
O=C(N[C@@H]([C@H](O)CNCc1cccc(I)c1)C(F)(F)c1ccccc1)OCc1ccccc1	P	MIC	broth dilution		64 µg/mL
CC(C)(C)c1cnc(C(=O)/C=C/c2ccccc2F)cn1	Hauduroy	MIC	absorbance		12.5 µg/mL
CCCc1c2c([nH]c(=O)c1C)C(=O)c1[nH]c(=O)c(C)c(CCC)c1C2=O	G133 Bostrom (ATCC 12478)	MIC90	resazurin / fluorescence		>7.5 µg/mL
CC(C)(C)c1cnc(C(=O)/C=C/c2ccccc2Cl)cn1	Hauduroy	MIC	absorbance		25 µg/mL
O=C(Nc1ccc(C(F)(F)F)cc1)c1cc(Br)ccc1OP(=O)(Oc1ccccc1)Oc1ccccc1	My 235/80	MIC		21 d	8 µM
C=C1C(=O)N[C@@H](CC(C)C)C(=O)N[C@H](CC(C)C)C(=O)N[C@H](C(=O)O)[C@H](C)C(=O)N[C@H](CCCN=C(N)N)C(=O)N[C@@H](/C=C/C(C)=C/[C@H](C)[C@H](Cc2ccccc2)OC)[C@@H](C)C(=O)N[C@@H](C(=O)O)CCC(=O)N1C		MIC	resazurin		0.42 µM
O=C(Nc1ccc(Br)cc1)c1cc(Cl)ccc1OP(=O)(c1ccccc1)c1ccccc1	My 235/80	MIC		7 d	4 µM
CC(C)(C)c1cnc(C(=O)/C=C/c2ccc(F)cc2)cn1	Hauduroy	MIC	absorbance		>25 µg/mL
O=C(N[C@H]([C@@H](O)CNCc1cccc(I)c1)C(F)(F)c1ccccc1)OCc1ccccc1	ATCC 35775	MIC	broth dilution		32 µg/mL
O=C(N/N=C/N1CCN(c2cc3c(cc2F)c(=O)c(C(=O)O)cn3C2CC2)CC1)c1ccc(C(F)(F)F)cc1	6509/96	MIC		7 d	1 µM
O=C(Nc1ccc(Cl)cc1)c1cc(Cl)ccc1OP(=O)(OCc1ccccc1)OCc1ccccc1	My 235/80	MIC		14 d	32 µM
O=C(N[C@H]([C@H](O)CNCc1cccc(I)c1)C(F)(F)c1ccccc1)OCc1ccccc1	ATCC 35775	MIC	broth dilution		32 µg/mL
NNC(=O)c1ccncc1	Hauduroy	MIC	absorbance		3.13–12.5 µg/mL
CCNC(=O)Nc1ccc(S(=O)(=O)Nc2cc(C)on2)cc1	6509/96 clinical isolate	MIC100	broth dilution / absorbance	7 d	250 µM
COc1cc(=O)n(C)c2ccccc12	ATCC 12478	MIC	broth dilution / resazurin		10600 µM
O=C1c2cc(Br)ccc2OP(=O)(c2ccccc2)N1c1ccc(C(F)(F)F)cc1	My 235/80	MIC		21 d	8 µM
NNC(=O)c1ccncc1	DSM 44162	MIC100	broth dilution		29.2 µM
CCCCc1cnc(C(=O)/C=C/c2ccc(Br)cc2)cn1	Hauduroy	MIC	absorbance		>50 µg/mL
CC(C)=CCC/C(C)=C/CNCCNC1C2CC3CC(C2)CC1C3	ATCC 35775	MIC	broth dilution		2 µg/mL
C[C@H]1COC2(CCN(c3nc(=O)c4cc(C(F)(F)F)cc([N+](=O)[O-])c4s3)CC2)O1	ATCC 12478	MIC	resazurin / fluorescence		<0.02 µg/mL
CC(C)Cc1cnc(C(=O)/C=C/c2ccc(Cl)cc2)cn1	Hauduroy	MIC	absorbance		12.5 µg/mL

For reference, 2 entries again:

SMILES | strain | measure | read by | setting | value
O=C(Nc1ccc(Cl)cc1)c1cc(Cl)ccc1OP(=O)(OCc1ccccc1)OCc1ccccc1 | My 235/80 | MIC |  | 14 d | 32 µM
C=C1C(=O)N[C@@H](CC(C)C)C(=O)N[C@H](CC(C)C)C(=O)N[C@H](C(=O)O)[C@H](C)C(=O)N[C@H](CCCN=C(N)N)C(=O)N[C@@H](/C=C/C(C)=C/[C@H](C)[C@H](Cc2ccccc2)OC)[C@@H](C)C(=O)N[C@@H](C(=O)O)CCC(=O)N1C |  | MIC | resazurin |  | 0.42 µM